Anti-infective test results gathered from many reports (values: NIAID ChemDB through PubChem).

All rows: toxicity to cultured cells; read-out: CC50

An empty or dashed field is not shown.

| smiles | method | setting | cell line | result |
|---|---|---|---|---|
| O=C(c1c[nH]c2ccccc12)[C@H](O)CO | MTT | - | SW-480 | >40 µg/mL |
| OC[C@H]1O[C@@H](n2c(Br)nc3cc(Cl)c(Cl)cc32)[C@H](O)[C@@H]1O | - | - | BFU-E | 90 µM |
| COc1ccc2nc3cc(Cl)ccc3c(NCCCCNC(=O)[C@@H](N)Cc3cnc[nH]3)c2c1 | MTS | - | KB cells | 0.405 µM |
| O=c1cc(N2CCN(c3ccccc3)CC2)c2cccnc2n1O | - | - | HeLa | <100 µM |
| O=C1NC(=O)/C(=C/c2ccc(-c3ccccc3)cc2)S1 | MTS | - | HepG2-NTCP | 23.9 µM |
| C1=NC(CN(Cc2ccccc2)c2ccccc2)=NC1 | absorbance | 5 d | HepAD38 | >30 µM |
| CCOC(=O)[C@@]1(C)CC[C@]2(C)CC[C@]3(C)C(=CC(=O)[C@@H]4[C@@]5(C)CC/C(=N\OCc6cccc(F)c6)C(C)(C)[C@@H]5CC[C@]43C)[C@@H]2C1 | MTT | - | CT26 | 8.69 µM |
| O=[N+]([O-])c1ccc(N2CCN(c3ccc([N+](=O)[O-])cc3)CC2)cc1 | - | - | A549 | 149.2 µg/mL |
| COc1cc(-c2nnnn2S(=O)(=O)c2ccc(Br)cc2)ccc1OCC(O)(Cn1cncn1)c1ccc(F)cc1F | MTT | - | CHO-K1 | 38.12 µg/mL |
| CS(=O)(=O)c1ccc(-c2ccc3ncnc(Nc4ccc(N5CCOCC5)cc4)c3c2)cc1 | - | - | HUH 9B | >25 µM |
| COc1ccc2nc3cc(Cl)ccc3c(NCCNC(=O)[C@@H]3CCCN3)c2c1 | MTS | - | KB cells | 0.455 µM |
| Cc1ccc2nc(Nc3cc(Cl)cc(Br)c3)sc2c1 | MTS | - | Ava5 | 168 µM |
| c1nc(Nc2ccc(N3CCOCC3)cc2)c2cc(-c3ccc(CN4CCOCC4)o3)ccc2n1 | - | - | HUH 9B | >25 µM |
| CCOC(=O)[C@@]1(C)CC[C@]2(C)CC[C@]3(C)C(=CC(=O)[C@@H]4[C@@]5(C)CC/C(=N\OCc6ccsc6)C(C)(C)[C@@H]5CC[C@]43C)[C@@H]2C1 | MTT | - | K562 | 14.38 µM |
| COc1cc([C@@H]2CCc3ccc(O)cc3O2)ccc1O | resazurin | - | BC | >20 µg/mL |
| O=C(OC(Cc1ccc(O)c(O)c1)C(=O)O)c1cc(-c2ccc(O)c(O)c2)c2cc(O)c(O)cc2c1 | - | - | HuT-78 | >50 µM |
| FC(F)(F)c1cc(N2CCOCC2)ccc1Nc1ncnc2ccc(-c3cccs3)cc12 | - | - | HUH 9B | 10–25 µM |
| CCOC(=O)[C@@]1(C)CC[C@]2(C)CC[C@]3(C)C(=CC(=O)[C@@H]4[C@@]5(C)CC/C(=N\OCc6ccc(F)cc6)C(C)(C)[C@@H]5CC[C@]43C)[C@@H]2C1 | MTT | - | CT26 | 4.54 µM |
| CCCCCCCN=C(N)c1ccc(N2CCN(c3ccc(C(N)=NCCCCCCC)cc3)CC2)cc1 | - | - | WI-38 | >3.4 µg/mL |
| Clc1ccc2ncnc(Nc3ccc(N4CCOCC4)cc3)c2c1 | - | - | HUH 9B | >25 µM |
| O=C(NCc1ccc(Cl)cc1)c1c[nH]c2ccc(C#CCO)cc2c1=O | - | - | 10T1/2 | 62 µM |
| O=C1NC(=O)/C(=C/c2ccc(-c3ccc(-c4ccccc4)cc3)cc2)S1 | MTS | - | HepG2-NTCP | >10 µM |
| c1ccc2[nH]c(-c3ccc(N4CCN(c5ccc(-c6nc7ccccc7[nH]6)cc5)CC4)cc3)nc2c1 | - | - | A549 | 6.08 µg/mL |
| CN(C)Cc1ccc(-c2ccc3ncnc(Nc4ccc(N5CCOCC5)cc4)c3c2)o1 | - | - | HUH 9B | 10–25 µM |
| COc1cc(-c2nnnn2S(=O)(=O)c2ccc(OC(F)(F)F)cc2)ccc1OCC(O)(Cn1cncn1)c1ccc(F)cc1F | MTT | - | CHO-K1 | 58.12 µg/mL |
| CCc1c(O)c2c(c(O)c1OC)C(=O)C(OC)CC2 | - | - | NCI-H187 | 6.81 µg/mL |
| COc1ccc2nc3cc(Cl)ccc3c(NCCNC(=O)[C@@H](N)Cc3cnc[nH]3)c2c1 | MTS | - | MRC-5 cells | 5.86 µM |
| O=c1cc(Nc2ccccc2N2CCOCC2)c2cccnc2n1O | - | - | HeLa | 0.2 µM |
| CCN=C(N)c1ccc(N2CCN(c3ccc(C(N)=NCC)cc3)CC2)cc1 | - | - | WI-38 | >54.2 µg/mL |
| c1ccc2c(NCCCCN3CCNCC3)c3ccccc3nc2c1 | MTS | - | KB cells | 0.695 µM |
| CC(C)Nc1nc2cc(Cl)c(Cl)cc2n1[C@H]1O[C@@H](CO)[C@H](O)[C@@H]1O | - | - | CFU-GM | 90 µM |
| c1nc(Nc2ccc(N3CCOCC3)cc2)c2cc(-c3ccc(C4OCCO4)o3)ccc2n1 | - | - | HUH 9B | 10–25 µM |
| O=C(CCCCCCCCc1ccccc1)c1c(O)cc(O)cc1O | resazurin | - | NCI-H187 | >20 µg/mL |
| CC1(C)C2CC=C3C(CC[C@@]4(C)C5C[C@](C)(C(=O)O)CC[C@]5(C)CC[C@]34C)[C@@]2(C)CC[C@H]1O | - | - | A2780 | 20 µM |
| COc1ccnc2[nH]cc(C(=O)C(=O)N3CCN(C(=O)c4ccccc4)C[C@H]3C)c12 | - | - | PM1 | >225 µM |
| CCCCCCCCCN=C(N)c1ccc(N2CCN(c3ccc(C(N)=NCCCCCCCCC)cc3)CC2)cc1 | - | - | WI-38 | 2.52 µg/mL |
| Nc1ccn([C@H]2CC[C@@H](CO)O2)c(=O)n1 | - | - | MKN-28 | 451.6 µg/mL |
| O=C(NCc1ccccc1)c1ccc2c(c1)CCN(c1cc(=O)n(O)c3ncccc13)C2 | - | - | HeLa | <100 µM |
| COC1=CC(=O)c2c(cc(OC)c(C(C)C3=C(O)c4c(O)cc(O)cc4C(=O)C3=O)c2O)C1=O | - | - | NCI-H187 | 1.39 µg/mL |
| CCOC(=O)[C@@]1(C)CC[C@]2(C)CC[C@]3(C)C(=CC(=O)[C@@H]4[C@@]5(C)CC/C(=N\OCc6cc(F)cc(F)c6)C(C)(C)[C@@H]5CC[C@]43C)[C@@H]2C1 | MTT | - | K562 | 19.65 µM |
| COc1cc(O)c2c(c1)[C@H](O)[C@@H](O)CC2=O | - | - | NCI-H187 | 12.08 µg/mL |
| CCc1nc(CCC(=O)O)cnc1CCC(=O)O | MTT | - | SMMC-7721 | >40 µg/mL |
| Cc1cc(C)cc(Nc2nc3ccc(C)cc3s2)c1 | MTS | - | Ava5 | 60 µM |
| c1csc(-c2ccc3ncnc(Nc4ccc(N5CCOCC5)cc4)c3c2)n1 | - | - | HUH 9B | >25 µM |
| O=C1NC(=O)/C(=C/c2ccc(-c3ccc(-c4cccnc4)cc3)cc2)S1 | MTS | - | HepG2-NTCP | >10 µM |
| COc1ccc2nc3cc(Cl)ccc3c(NCCN)c2c1 | MTS | - | MRC-5 cells | 0.105 µM |
| COc1ccc(Nc2nc3ccc(C)cc3s2)c(OC)c1 | MTS | - | Ava5 | 28 µM |
| CCOC(=O)[C@@]1(C)CC[C@]2(C)CC[C@]3(C)C(=CC(=O)[C@@H]4[C@@]5(C)CC/C(=N\OCc6cc(C)cc(C)c6)C(C)(C)[C@@H]5CC[C@]43C)[C@@H]2C1 | MTT | - | CT26 | 33.42 µM |
| O=C(NCc1ccc(F)cc1)c1c(O)c2cccnc2n(O)c1=O | - | - | HeLa | <100 µM |
| O=C1NC(=O)/C(=C/c2ccc(-c3ccc(C(=O)Nc4ccccc4)cc3)cc2)S1 | MTS | - | HepG2-NTCP | >10 µM |
| c1coc(-c2ccc3ncnc(Nc4ccc(N5CCOCC5)cc4)c3c2)c1 | - | - | HUH 9B | 1–10 µM |
| O=C(NCCNc1c2ccccc2nc2ccccc12)[C@@H]1CCCN1 | MTS | - | KB cells | 2.32 µM |
| O=c1c(-c2ccccc2O)c(O)c2cccnc2n1O | - | - | HeLa | <100 µM |
| COC1=CC(=O)c2c(cc(OC)c(C(C)C3=C(O)c4c(cc(O)c(C(C)=O)c4O)C(=O)C3=O)c2O)C1=O | - | - | NCI-H187 | 3.72 µg/mL |
| COc1cccc(Nc2nc3ccc(C)cc3s2)c1 | MTS | - | Ava5 | 321 µM |
| COc1ccc2nc3cc(Cl)ccc3c(NCCCCCCN3CCNCC3)c2c1 | MTS | - | KB cells | 0.425 µM |

For reference, 8 entries again:

smiles | method | setting | cell line | result
CS(=O)(=O)c1ccc(-c2ccc3ncnc(Nc4ccc(N5CCOCC5)cc4)c3c2)cc1 | - | - | HUH 9B | >25 µM
O=C1NC(=O)/C(=C/c2ccc(-c3ccc(-c4cccnc4)cc3)cc2)S1 | MTS | - | HepG2-NTCP | >10 µM
COc1ccc2nc3cc(Cl)ccc3c(NCCNC(=O)[C@@H](N)Cc3cnc[nH]3)c2c1 | MTS | - | MRC-5 cells | 5.86 µM
O=C(NCCNc1c2ccccc2nc2ccccc12)[C@@H]1CCCN1 | MTS | - | KB cells | 2.32 µM
CCc1nc(CCC(=O)O)cnc1CCC(=O)O | MTT | - | SMMC-7721 | >40 µg/mL
c1csc(-c2ccc3ncnc(Nc4ccc(N5CCOCC5)cc4)c3c2)n1 | - | - | HUH 9B | >25 µM
O=C(OC(Cc1ccc(O)c(O)c1)C(=O)O)c1cc(-c2ccc(O)c(O)c2)c2cc(O)c(O)cc2c1 | - | - | HuT-78 | >50 µM
Cc1ccc2nc(Nc3cc(Cl)cc(Br)c3)sc2c1 | MTS | - | Ava5 | 168 µM

Neighbouring rows are from separate reports. a–b is a range or a potency band. CCn: concentration that lowers growth or viability of the cells by n%.